Results of unrelated studies side by side (data: NIAID ChemDB).

Common to all: growth or infection tests; agent: Mycobacterium tuberculosis

ECn is the concentration giving n% inhibition of infection, replication or growth.

smiles | strain or isolate | mutations | read by | conditions | endpoint | tested at | value
Cc1ccc(SCC(=O)NCc2cccs2)cc1 | H37Rv |  | BACTEC |  | inhibition | 12.5 µg/mL | 93%
CSC(SSC(C)(C)C)C(N)=O | H37Rv |  |  |  | MIC |  | 500 µM
CCN(CCCCCN1C(=O)C(=O)c2cc(C3CCCCC3)ccc21)Cc1ccccc1 | H37Rv |  |  |  | MIC |  | ≤20 µg/mL
CC(=O)C(N=Nc1ccc(S(=O)(=O)NC2NCCC(C)N2)cc1)C(=O)Nc1ccccc1C | H37Rv |  | BACTEC |  | inhibition | 12.5 µg/mL | 24%
COc1ccn2nc(C)c(C(=O)NCc3ccc(-c4ccc(OC(F)(F)F)cc4)c(F)c3)c2c1 | H37Rv | Rifampicin-resistant | fluorescence |  | MIC |  | <0.002 µg/mL
CCCCCCCCCCCCN1C(=O)C(CC(=O)O)SC12CCNCC2 | H37Ra |  | resazurin |  | inhibition | 25 µg/mL | 3%
O=C(NC(Cc1c[nH]c2ccccc12)C(=O)O)c1ccccc1[N+](=O)[O-] | H37Rv |  | BACTEC |  | inhibition | 12.5 µg/mL | 2%
CCCCCCCCCCCCN1C(=O)C(CC(=O)O)SC12CCN(C(=O)C(N)CCCCN)CC2 | H37Ra |  | resazurin |  | EC50 |  | <25 µg/mL
CNC(=O)CNC(=O)[C@@H](NC(=O)CNC(=O)[C@@H]1CCCN1C(=O)[C@H](C)NC(=O)[C@@H](NC(=O)OC(C)(C)C)C(C)C)C(C)C | H37Rv |  | resazurin |  | MIC bound |  | >6.25 µg/mL
CCCCCCCCCCCN1C(=O)C(=O)c2cccc(-c3ccccc3)c21 | H37Rv |  |  |  | MIC |  | ≤20 µg/mL
COC(=O)c1c(NC(=O)c2ccccc2F)sc2c1CCCCC2 |  |  |  |  | MIC |  | 20.2 µM
CCN(CC)c1ccc2nc3c4ccccc4c(=N)cc-3oc2c1 | KM-R |  |  |  | MIC |  | 1.6 µg/mL
O=C1C(=O)N(CCN2CCN(Cc3ccccc3)CC2)c2ccc(-c3ccccc3)cc21 | H37Rv |  |  |  | MIC |  | ≤20 µg/mL
CO/N=C(\C(=O)N[C@@H]1C(=O)N2C(C(=O)O)=C(CSc3nc(=O)c(=O)[nH]n3C)CS[C@H]12)c1csc(N)n1 | 24 strains (drug-susceptible) |  |  |  | MIC50 |  | 128 µg/mL
O=C(Oc1ccccc1)c1ccc(NC(=O)c2ccccc2C(=O)O)cc1O | H37Rv |  |  |  | MIC |  | 0.125 µg/mL
CCCCCN1C(=O)C(=O)c2cccc(-c3ccccc3)c21 | H37Rv |  |  |  | MIC |  | ≤20 µg/mL
COC(=O)c1cc(=O)c2c(ccc3oc(=O)ccc32)[nH]1 | H37Rv |  | BACTEC |  | MIC bound |  | >12.5 µg/mL
Cc1cccc(OC/C(N=Cc2ccncc2)=N\NC(=O)c2ccncc2)c1 | H37Rv(ATCC25584) |  |  |  | MIC |  | 50 µg/mL
NNC(=O)c1ccncc1 |  |  |  |  | MIC |  | 0.2 µM
COC(=O)C1=C2Nc3ccccc3[C@@]23CCN2C3[C@]3(CCO[C@H]3[C@@]3(CC4C[C@]56CCO[C@H]5CCN5CC[C@H](C4N(c4ccccc4OC)C3)C56)[C@H]2O)C1 | H37Rv |  | resazurin |  | MIC90 |  | >50 µg/mL
O=C(N/N=C(\COc1cccc(Cl)c1)N=Cc1ccncc1)c1ccncc1 | H37Rv(ATCC25584) |  |  |  | MIC |  | 50 µg/mL
O=C(O)CCc1c2ccc(=O)c(O)c-2oc2c(O)c(O)ccc12 | H37Rv |  | BACTEC |  | MIC bound |  | >12.5 µg/mL
O=C(N/N=C(\COc1ccc(Cl)cc1)N=Cc1cccnc1)c1ccncc1 | INH-r |  |  |  | MIC |  | 50 µg/mL
CCCCCCCCCCCCN1C(=O)C(CC(=O)O)SC12CCCCCC2 | H37Ra |  | resazurin |  | inhibition | 25 µg/mL | 96%
Cc1cc(O)c2c(c1)C(=O)C[C@H](c1c(C)cc3c(c1O)C(=O)CCC3O)[C@@H]2O | H37Rv ATCC 27294 (drug-susceptible) |  |  |  | MIC |  | >100 µg/mL
Oc1ccc2c3c1O[C@H]1CCC[C@H]4[C@@H](C2)N(Cc2ccoc2)CC[C@]314 | H37Rv |  | BACTEC |  | inhibition | 12.5 µg/mL | 32%
CCCCCCCCCCCCN1C(=O)C(CC(=O)O)SC12CCN(C(=O)C(N)CC(=O)O)CC2 | H37Ra |  | resazurin |  | EC50 |  | >25 µg/mL
CCCCCCCCCCCCN1C(=O)C(=O)c2cccc(-c3ccccc3)c21 | H37Rv |  |  |  | MIC |  | ≤20 µg/mL
O=C(O)c1c(Cl)c(Cl)c(Cl)c(Cl)c1C(=O)Nc1ncc([N+](=O)[O-])s1 | H37Rv |  | BACTEC |  | inhibition | 12.5 µg/mL | 17%
COc1ccc(C2CC(c3ccc(O)c(C)c3)=NN2)cc1OC | H37Rv |  |  |  | inhibition | 6.25 µg/mL | 78%
Nc1ncnc2c1ncn2[C@@H]1O[C@H](CNS(=O)(=O)NC(=O)c2ccccc2[O-])[C@@H](O)[C@H]1O |  |  |  |  | MIC |  | 0.19 µM
CCCCOC(=O)c1ccc(NC(=O)c2ccccc2C(=O)O)cc1O | H37Rv |  |  |  | MIC |  | 20 µg/mL
OC[C@H]1O[C@@H](n2cnc3c(-c4ccco4)ncnc32)[C@H](O)[C@@H]1O | H37Rv |  |  |  | EC50 |  | >6.25 µg/mL
Cc1cccc(OC/C(N)=N\NC(=O)c2ccncc2)c1 | H37Rv(ATCC25584) |  |  |  | MIC |  | 12.5 µg/mL
CO[C@H]1/C=C/O[C@@]2(C)Oc3c(C)c(OC(C)=O)c4c(c3C2=O)C(=O)C=C(NC(=O)/C(C)=C\C=C\[C@H](C)[C@H](O)[C@@H](C)[C@@H](O)[C@@H](C)[C@H](OC(C)=O)[C@@H]1C)C4=O | RMP-R |  |  |  | MIC |  | 1.6 µg/mL
Cc1cc(C2=NNC(c3cccc([N+](=O)[O-])c3)C2)ccc1O | H37Rv |  |  |  | MIC |  | >6.25 µg/mL
NCCCCCNC(=O)c1csc(Nc2ccc(Cl)cc2)n1 |  |  | resazurin |  | inhibition | 6.25 µg/mL | 98%
CCCCCCCCCCCCN1C(=O)C(CC(=O)O)SC12CCN(C(=O)C(N)C(C)CC)CC2 | H37Ra |  | resazurin |  | inhibition | 25 µg/mL | 97%
O=C1CSC2=NC3=C(CSC/C3=C/c3ccc(Cl)cc3)C(c3ccc(Cl)cc3)N12 | H37Rv |  | BACTEC |  | inhibition | 12.5 µg/mL | 21%
Nc1ncnc2c1ncn2[C@@H]1O[C@H](COS(N)(=O)=O)[C@@H](O)[C@H]1O |  |  |  |  | MIC |  | 50 µM
CNn1cc(C(=O)O)c(=O)c2cc(F)c(N3CCN(C)CC3)cc21 | 10 strains |  |  |  | MIC |  | ≤4 µg/mL
COC(=O)C1=C2Nc3ccccc3[C@@]23CCN2C3[C@]3(CCO[C@H]3[C@@]3(CC4C[C@]56CC(=O)O[C@H]5CCN5CC[C@H](C4N(c4ccccc4OC)C3)C56)[C@H]2O)C1 | H37Rv |  | resazurin |  | MIC90 |  | 4 µg/mL
O=[N+]([O-])[O][Ga]([O][N+](=O)[O-])[O][N+](=O)[O-] | Erdman |  |  | inside macrophages | inhibition | 500 µM | 95%
Cc1ccc(C)c(NC(=O)CC/C(=N\NC(=O)c2c(O)ccc3ccccc23)C(C)C(=O)c2ccc(O)cc2)c1 | H37Rv |  | BACTEC |  | inhibition | 12.5 µg/mL | 0%
COc1cc(C2CC(c3ccc(O)c(C)c3)=NN2)cc(OC)c1OC | H37Rv |  |  |  | inhibition | 6.25 µg/mL | 86%
CNc1ccc2oc(C[C@@H]3OC4(CC[C@@H]3C)O[C@H](C(C)C(=O)c3ccc[nH]3)[C@H](C)C[C@H]4C)nc2c1C(=O)O | H37Rv |  | resazurin |  | MIC |  | 1.25 µg/mL
Nc1ncnc2c1ncn2[C@@H]1O[C@H](CNS(=O)(=O)CC(=O)c2ccccc2O)[C@@H](O)[C@H]1O |  |  |  |  | MIC |  | 25 µM
COc1ccc(OC/C(N)=N\NC(=O)c2ccncc2)cc1 | INH-r |  |  |  | MIC |  | 25 µg/mL
NC(=O)c1c(NC(=O)c2c(F)c(F)c(F)c(F)c2F)sc2c1CCCCC2 |  |  |  |  | MIC |  | 15.3 µM
Cc1c(N=Nc2ccc(Br)cc2)c(-c2ccccc2)nn1C(=S)S | PZA-R |  |  |  | MIC |  | 12.5 µg/mL
c1ccc(Cn2cnc3c(-c4ccccc4)ncnc32)cc1 | H37Rv |  |  |  | EC50 |  | <6.25 µg/mL
CC[C@@H](C(=O)[C@@H](C)[C@@H](O)[C@H](C)[C@@H]1O[C@@H]([C@@H](CC)C(=O)O)CC[C@@H]1C)[C@H]1O[C@@]2(C=C[C@@H](O)[C@@]3(CC[C@@](C)([C@H]4CC[C@](O)(CC)[C@H](C)O4)O3)O2)[C@H](C)C[C@@H]1C | H37Rv |  | resazurin |  | MIC |  | 10 µg/mL
CCCCC(O)CN1CCC(COc2ccc(C(=O)c3ccc(Cl)cc3)c(Cl)c2)CC1 |  |  | resazurin |  | MIC |  | 6.25 µg/mL
CN(C)C(=N)N=C(N)N | H37Rv |  | visual reading |  | MIC |  | >15000 µM
CO[C@H]1/C=C/O[C@@]2(C)Oc3c(C)c(O)c4c(O)c(c(/C=N/N5CCN(C)CC5)c(O)c4c3C2=O)NC(=O)/C(C)=C\C=C\[C@H](C)[C@H](O)[C@@H](C)[C@@H](O)[C@@H](C)[C@H](OC(C)=O)[C@@H]1C | H37Rv |  | fluorescence |  | MIC |  | 0.02 µg/mL
NCCCCCNC(=O)c1csc(Nc2ccccc2)n1 |  |  | resazurin |  | inhibition | 6.25 µg/mL | 66%
CCCCCCCC(O)CC(=O)CCc1ccc(O)c(OC)c1 | H37Rv |  |  |  | MIC |  | 50 µg/mL
CCN(CC)CCNc1ccc(CO)c2oc3ccc(OS(=O)(=O)c4ccc(C)cc4)cc3c(=O)c12 | RMP-R |  |  |  | MIC |  | 6.3 µg/mL
COc1ccc(/C=C/C(=O)c2ccc(O)c(C)c2)cc1OC | H37Rv |  |  |  | MIC |  | >6.25 µg/mL
NCCCCNC(=O)c1csc(Nc2ccc(Cl)cc2)n1 |  |  | resazurin |  | inhibition | 6.25 µg/mL | 13%
COc1cc(/C=C/C(=O)c2ccc(O)c(C)c2)cc(OC)c1OC | H37Rv |  |  |  | MIC |  | >6.25 µg/mL
CCCCCCCCCN1C(=O)C(=O)c2cccc(-c3ccccc3)c21 | H37Ra |  |  |  | MIC |  | ≤20 µg/mL
Cc1c(C(N)=O)sc(NC(=O)c2c(F)c(F)c(F)c(F)c2F)c1C(=O)O |  |  |  |  | MIC |  | 78.4 µM
CCOC(=O)c1ccc(N)cc1O | H37Rv |  |  |  | MIC |  | >20 µg/mL
OC[C@H]1O[C@@H](n2cnc3c(-c4cccs4)ncnc32)[C@H](O)[C@@H]1O | H37Rv |  |  |  | EC50 |  | >6.25 µg/mL
CCCCCCCCN1C(=O)C(C)SC12CCCCC2 | H37Ra |  | resazurin |  | EC50 |  | <25 µg/mL
Cc1cc(C(=O)/C=C/c2cccc([N+](=O)[O-])c2)ccc1O | H37Rv |  |  |  | inhibition | 6.25 µg/mL | 65%
CCCCCCCCCCCCN1C(=O)C(CC(=O)O)SC12CCCCC2 | H37Ra |  | resazurin |  | EC50 |  | <25 µg/mL
O=C1Cc2cc(C3CCCCC3)ccc2N1CCC1CCCCC1 | H37Ra |  |  |  | MIC |  | ≤20 µg/mL
Cn1cc(-n2[nH]c(=O)n(-c3ccccc3)c2=O)c(=O)n(C)c1=O | H37Rv |  | resazurin |  | inhibition | 6.25 µg/mL | 16%
COC(=O)c1ccc(NC(=O)c2ccccc2C(=O)O)cc1O | H37Rv |  |  |  | MIC |  | >2 µg/mL
CCCCc1c(O)c2c(=O)[nH]c(C)nc2oc1=O | H37Rv |  | BACTEC |  | MIC bound |  | >12.5 µg/mL
C[C@H]1[C@H](NC(=O)/C(=N\OC(C)(C)C(=O)O)c2csc(N)n2)C(=O)N1S(=O)(=O)O | 24 strains (drug-susceptible) |  |  |  | MIC90 |  | >64 µg/mL
CCCCCCCCN1C(=O)C(=O)c2cccc(-c3ccccc3)c21 | H37Rv |  |  |  | MIC |  | ≤20 µg/mL
COC1(CO)C(=O)N(C)CC(=O)N1C | KM-R |  |  |  | MIC |  | 6.3 µg/mL
Cc1ccccc1OC/C(N)=N\NC(=O)c1ccncc1 | H37Rv(ATCC25584) |  |  |  | MIC |  | 25 µg/mL
O=C(NCCO)c1ccncc1 | H37Rv |  | resazurin |  | MIC bound |  | >6.25 µg/mL
CCCCCCCCN1C(=O)CSC12CCCCC2 | H37Ra |  | resazurin |  | EC50 |  | <25 µg/mL
Cc1ccccc1Nc1cc(Cl)nc(N)n1 | H37Rv |  | BACTEC |  | MIC bound |  | >12.5 µg/mL
COc1ccc(CN2CCNCC2)c(OC)c1OC | H37Rv |  | visual reading |  | MIC |  | 1000 µM
O=C1N(Cl)C(=O)C(c2ccc(Cl)cc2)(c2ccc(Cl)cc2)N1Cl | H37Rv |  | BACTEC |  | MIC bound |  | >12.5 µg/mL
N/C(COc1ccccc1Cl)=N/NC(=O)c1ccncc1 | INH-r |  |  |  | MIC |  | 100 µg/mL

Repeating the first 5 entries:

smiles	strain or isolate	mutations	read by	conditions	endpoint	tested at	value
Cc1ccc(SCC(=O)NCc2cccs2)cc1	H37Rv		BACTEC		inhibition	12.5 µg/mL	93%
CSC(SSC(C)(C)C)C(N)=O	H37Rv				MIC		500 µM
CCN(CCCCCN1C(=O)C(=O)c2cc(C3CCCCC3)ccc21)Cc1ccccc1	H37Rv				MIC		≤20 µg/mL
CC(=O)C(N=Nc1ccc(S(=O)(=O)NC2NCCC(C)N2)cc1)C(=O)Nc1ccccc1C	H37Rv		BACTEC		inhibition	12.5 µg/mL	24%
COc1ccn2nc(C)c(C(=O)NCc3ccc(-c4ccc(OC(F)(F)F)cc4)c(F)c3)c2c1	H37Rv	Rifampicin-resistant	fluorescence		MIC		<0.002 µg/mL

A number after MIC or MFC names an inhibition level or a share of isolates. MIC bound: limit read from a one-dose screen. Blank or dashed fields: not listed here. Inhibition is in % at the dose shown (toxicity tests: loss of growth or viability). Neighbouring rows are from separate reports.